Anti-infective test results gathered from many reports (values: NIAID ChemDB through PubChem).

All rows: growth or infection tests; organism: Hepatitis B virus; measure: EC50

An empty or dashed field is not shown. Neighbouring rows are from separate reports. a–b is a range or a potency band. ECn: concentration that inhibits the pathogen or its effect by n%.

| compound | strain | changes | cell line | read by | result |
|---|---|---|---|---|---|
| Cn1nc2cc(NS(=O)(=O)c3ccn(-c4ccnc(N)n4)n3)ccc2c1C(=O)Nc1ccc(F)c(Cl)c1 | - | - | HepAD38 | PCR | <100 µM |
| O=c1[nH]c(=O)n(COCCO)cc1C(F)(F)F | Mutation M204I | - | B1 | - | 53 µM |
| c1nc(Nc2ccc(N3CCOCC3)cc2)c2cc(-c3ccc(CN4CCOCC4)o3)ccc2n1 | - | - | HUH 9B | replicon | <1 µM |
| Cn1nc2cc(NS(=O)(=O)c3ccn(-c4cccc(F)n4)n3)ccc2c1C(=O)Nc1ccc(F)c(Cl)c1 | - | - | HepAD38 | - | 100–1000 µM |
| O=c1[nH]c(=O)n(COCCO)cc1Cl | Mutation M204I | - | B1 | - | 69 µM |
| c1ccc(COc2ccc(-c3ccc4ncnc(Nc5ccc(N6CCOCC6)cc5)c4c3)cc2)cc1 | - | - | HUH 9B | replicon | 1–5 µM |
| CCOC(=O)Nc1cc2c(cc1OCCCOC)S(=O)(=O)C(C)c1cc(C(=O)O)c(=O)n(C3CC3)c1-2 | - | - | Primary human hepatocytes | antigen / visual reading / absorbance | >0.5 µM |
| CN(C)CCOc1ccnc(-n2cc(S(=O)(=O)Nc3ccc4c(C(=O)Nc5ccc(F)c(Cl)c5)n(C)nc4c3)cn2)c1 | - | - | HepAD38 | PCR | <100 µM |
| C[C@H]1CS(=O)(=O)[C@@](F)(c2ncc(Cc3ccccc3)s2)CN1C(=O)c1ccc(Br)c(Cl)c1 | - | - | HepG2.117 | PCR | >5 µM |
| COCCCOc1cc2c(cc1C(C)C)-c1c(cc(C(=O)O)c(=O)n1C1CC1)CS2(=O)=O | - | - | Primary human hepatocytes | antigen / visual reading / absorbance | >0.5 µM |
| Cc1cc(NC(=O)c2c3c(cn2C)S(=O)(=O)N[C@H]2CN(C(=O)C(=O)N[C@H](C)C(F)(F)F)C[C@@]2(O)CO3)ccc1F | - | - | HepAD38 | PCR | <0.5 µM |
| Cc1cnc(C2CN(C(=O)c3ccc(Br)c(Cl)c3)CCS2(=O)=O)s1 | - | - | HepG2.117 | PCR | <0.1 µM |
| CC(=O)Nc1ccc(-c2ccc3ncnc(Nc4ccc(N5CCOCC5)cc4)c3c2)cc1 | - | - | HUH 9B | replicon | <1 µM |
| Cc1cc(NC(=O)c2c3c(cn2C)S(=O)(=O)N[C@H]2CN(C(=O)C(=O)N[C@H](C)C(F)(F)F)C[C@H]2CO3)ccc1F | - | F110I | HepG2 | PCR | 0.00112 µM |
| Cc1c(C(=O)N2CCn3c(c(C(=O)NCC4=C(F)C=CCC4)n(-c4ccc(OC5CC5)cc4)c3=O)C2)ccc(Br)c1Cl | - | - | HepG2.117 | PCR | 0.5–5 µM |
| COc1cc(Nc2ncnc3ccc(-c4cccs4)cc23)ccc1N1CCOCC1 | - | - | HUH 9B | replicon | <1 µM |
| C=C1C(COP(=O)(N[C@@H](C)C(=O)OC)Oc2ccccc2)C(O)C(F)C1n1cnc2c(N)ncnc21 | - | L180M+M204V+S202G | Huh7 | - | 0.054 µM |
| O=C(NC1CC2CN(c3nc4cc(Cl)ccc4o3)CC2C1)C1CCS(=O)(=O)C1 | - | - | Primary human hepatocytes (PHH) | antigen / luminescence | 14 µM |
| COCCCOc1cc2c(cc1-c1ncco1)-c1c(cc(C(=O)O)c(=O)n1C1CC1)C(C)S2(=O)=O | - | - | Primary human hepatocytes | antigen / visual reading / absorbance | >0.5 µM |
| C=CCn1c(=O)c(-c2cc(CO)n(-c3ccccc3)n2)nc2ccccc21 | - | - | HepG2 2.2.15 | ELISA | 1.1 µM |
| C=C[C@@](CO)(NC(=O)C(=O)c1c(C)c(C(=O)Nc2ccc(F)c(C(F)(F)F)c2)n(C)c1C)C(F)(F)F | - | - | HepG2.2.15 | PCR | 0.001–0.0099 µM |
| CS(=O)(=O)C1(c2cc(C(=O)NC34CC(c5nc(-c6ccc(Cl)cc6)no5)(C3)C4)ccn2)CC1 | - | - | Primary human hepatocytes | antigen / luminescence | 0.56 µM |
| Nc1nc2c(ncn2[C@H]2CO[C@@H](CO)O2)c(=O)[nH]1 | Wild | - | AD38 | - | 30 µM |
| COCCCOc1cc2c(cc1Cl)-c1c(cc(C(=O)O)c(=O)n1C1CCC1)CS2(=O)=O | - | - | Primary human hepatocytes | antigen / visual reading / absorbance | 0.05–0.1 µM |
| Nc1nc(NC2CC2)c2ncn([C@H]3CO[C@@H](CO)O3)c2n1 | Wild | - | AD38 | - | <10 µM |
| CC(C)(c1cccc(C(=O)NC23CC(c4nc(-c5ccc(Cl)cc5)no4)(C2)C3)c1)S(C)(=O)=O | - | - | Primary human hepatocytes | antigen / luminescence | 0.37 µM |
| CNS(=O)(=O)NC1CCCC(NS(=O)(=O)c2cn(C)c(C(=O)Nc3ccc(F)c(F)c3)c2F)C1 | - | - | HepAD38 cells | PCR | <0.1 µM |
| C[C@@H](c1ccccc1)N1C[C@H](O)Cn2c(c3n(c2=O)CCN(C(=O)c2ccc(Br)c(Cl)c2)C3)C1=O | - | - | HepG2.117 | PCR | 0.1–0.5 µM |
| Cc1c(C(=O)C(=O)NC2(c3cnc[nH]3)COC2)c(C)n(C)c1C(=O)Nc1ccc(F)c(C(F)(F)F)c1 | - | - | HepG2.2.15 | PCR | <0.001 µM |
| C=C1[C@H](CO)[C@@H](O)C[C@@H]1n1cnc2c(=O)[nH]c(N)nc21 | - | - | Huh7 | - | 0.008 µM |
| Cc1c([N+](=O)[O-])c(=O)[nH]c(=O)n1COCCO | Mutation M204I | - | B1 | - | 25 µM |
| CCOC(=O)[C@H](C)NP(=O)(OC[C@@H]1OC[C@H](n2cnc3c(N)nc(N)nc32)O1)Oc1ccccc1 | Wild | - | AD38 | - | 0.3 µM |
| C#CCNC(=O)C(=O)N1CC[C@@H](NS(=O)(=O)c2cn(C)c(C(=O)Nc3ccc(F)c(F)c3)c2F)C1 | - | - | HepAD38 cells | PCR | <0.1 µM |
| COc1ccc(-n2c(C(=O)NCc3ccccc3)c3n(c2=O)CCN(C(=O)c2ccc(Cl)c(Cl)c2)C3)c(C#N)c1 | - | - | HepG2.117 | PCR | >5 µM |
| CNS(=O)(=O)N1CCC(NS(=O)(=O)c2cn(C)c(C(=O)Nc3ccc(F)c(F)c3)c2F)C(F)(F)C1 | - | - | HepAD38 cells | PCR | <0.1 µM |
| N#Cc1cccc(-n2c(C(=O)NCc3ccccc3)c3n(c2=O)CCN(C(=O)c2ccc(Br)c(Cl)c2)C3)c1 | - | - | HepG2.117 | PCR | 0.5–5 µM |
| Nc1ccn([C@H]2CS[C@H](CO)O2)c(=O)n1 | - | - | CEM | - | >5 µM |
| Cn1nc2cc(N(CCO)S(=O)(=O)c3cnn(-c4cc(N5CCOCC5)ccn4)c3)ccc2c1C(=O)Nc1ccc(F)c(Cl)c1 | - | - | HepAD38 | PCR | <100 µM |
| Cc1cc(NC(=O)c2c3c(cn2C)S(=O)(=O)N[C@H]2CN(C(=O)C(=O)NCC(C)C)C[C@H]2CO3)ccc1F | - | - | HepAD38 | PCR | <0.5 µM |
| C=C1CN(Cc2ccccc2)C(=O)c2c3n(c(=O)n2C1)CCN(C(=O)c1ccc(Br)c(Cl)c1)C3 | - | - | HepG2.117 | PCR | 0.1–0.5 µM |
| Cn1nc2cc(NS(=O)(=O)c3cnn(-c4ccnc(Cl)n4)c3)ccc2c1C(=O)Nc1ccc(F)c(Cl)c1 | - | - | HepAD38 | PCR | >1000 µM |
| CS(=O)(=O)C1(c2ccn(C(=O)NCCC3(c4ncc(-c5ccc(Cl)cc5)s4)CCC3)n2)CC1 | - | - | Primary human hepatocytes | antigen / luminescence | 0.06 µM |
| Cc1cc(Cl)ccc1C(=O)N1CCS(=O)(=O)[C@H](c2cccs2)C1 | - | - | HepG2.117 | PCR | >5 µM |
| Cn1nc2cc(NS(=O)(=O)c3cn[nH]c3)ccc2c1C(=O)Nc1ccc(F)c(Cl)c1 | - | - | HepAD38 | PCR | 100–1000 µM |
| CCn1cc(S(=O)(=O)N[C@@H]2CCCN(C(=O)C(N)=O)C2)c(F)c1C(=O)Nc1ccc(F)c(F)c1 | - | - | HepAD38 cells | PCR | <0.1 µM |
| Cc1cc(NC(=O)c2c3c(cn2C)S(=O)(=O)NC2CN(C(=O)C(=O)NC(C)(C)C(F)(F)F)CCC2CO3)ccc1F | - | - | HepAD38 | PCR | <0.5 µM |
| COCCCOc1cc2c(cc1Cl)-c1c(cc(C(=O)O)c(=O)n1C1CC(F)(F)C1)CS2(=O)=O | - | - | Primary human hepatocytes | antigen / visual reading / absorbance | >0.5 µM |
| c1ccc(COc2ccccc2-c2ccc3ncnc(Nc4ccc(N5CCOCC5)cc4)c3c2)cc1 | - | - | HUH 9B | replicon | 1–5 µM |
| Nc1ccn([C@@H]2CS[C@H](CO)O2)c(=O)n1 | - | - | HepG2 2.2.15 | ELISA | <0.1 µM |
| N#CCOc1ccc(CCC(=O)c2c3n(c(=O)n2-c2ccc(OCC(F)(F)F)cc2)CCN(C(=O)c2ccc(Br)c(Cl)c2)C3)c(F)c1 | - | - | HepG2.117 | PCR | 0.1–0.5 µM |
| Clc1ccc(-n2nc3ccc(NCC4CCOC4)cc3n2)cc1 | - | - | Primary human hepatocytes (PHH) | antigen / luminescence | 4.92 µM |
| COCCCOc1cc2c(cc1C1CC1)-c1c(cc(C(=O)O)c(=O)n1C1CC1)C(C)S2(=O)=O | - | - | Primary human hepatocytes | antigen / visual reading / absorbance | 0.1–0.5 µM |
| CN1[C@H](C(=O)Nc2ccc(F)c(Cl)c2)C[C@H](c2ncc(-c3cn(C)cn3)s2)NS1(=O)=O | Genotype D | - | HepG2-NTCP | ELISA | 0.227 µM |
| CCOCCCOc1cc2c(cc1Cl)-c1c(cc(C(=O)O)c(=O)n1C1CC1)C(C)S2(=O)=O | - | - | Primary human hepatocytes | antigen / visual reading / absorbance | 0.1–0.5 µM |
| CS(=O)(=O)C1(c2cccc(C(=O)NC34CC(c5nc(-c6ccc(Cl)cc6)no5)(C3)C4)n2)CC1 | - | - | Primary human hepatocytes | antigen / luminescence | 0.47 µM |
| c1coc(-c2ccc3ncnc(Nc4ccc(N5CCOCC5)cc4)c3c2)c1 | - | - | HUH 9B | replicon | <1 µM |
| O=C(Nc1ccc(-c2nc3ccc(F)c(F)c3o2)cc1)C1CCOC1 | - | - | Primary human hepatocytes (PHH) | antigen / luminescence | 1.43 µg/mL |
| O=C(NC1CCC2(CC1)CCN(c1nc3cc(Cl)ccc3o1)CC2)c1ccnc(S(=O)(=O)C2CC2)c1 | - | - | Primary human hepatocytes (PHH) | antigen / luminescence | 5.839 µM |
| Cn1nc2cc(NS(=O)(=O)NCC(=O)O)ccc2c1C(=O)Nc1ccc(F)c(Cl)c1 | - | - | HepAD38 | PCR | >1000 µM |
| Cn1cnc(-c2ccc([C@@H]3CN(C(=O)Nc4ccc(F)c(Cl)c4)CCS3(=O)=O)s2)c1 | - | - | HepG2.117 | PCR | 0.5–5 µM |
| CCOC(=O)c1cn(COCCO)c(=S)[nH]c1=O | Mutation M204I | - | B1 | - | 20 µM |
| O=C(c1ccc(Cl)c(F)c1)N1CCS(=O)(=O)[C@@H](c2cccs2)C1 | - | - | HepG2.117 | PCR | 0.1–0.5 µM |
| Cc1c(C(=O)C(=O)NC2(C#CC(F)(F)F)CC(O)C2)c(C)n(C)c1C(=O)Nc1ccc(F)c(C#N)c1 | - | - | HepG2.2.15 | PCR | 0.1–0.999 µM |
| N#CCCCOc1cc2c(cc1Cl)-c1c(cc(C(=O)O)c(=O)n1C1CC1)CS2(=O)=O | - | - | Primary human hepatocytes | antigen / visual reading / absorbance | 0.1–0.5 µM |
| O=C(Nc1ccccc1)C1CN(C(=O)c2ccc(Br)c(Cl)c2)CCS1(=O)=O | - | - | HepG2.117 | PCR | 0.5–5 µM |

The last 8 rows once more:

compound	strain	changes	cell line	read by	result
O=C(NC1CCC2(CC1)CCN(c1nc3cc(Cl)ccc3o1)CC2)c1ccnc(S(=O)(=O)C2CC2)c1	-	-	Primary human hepatocytes (PHH)	antigen / luminescence	5.839 µM
Cn1nc2cc(NS(=O)(=O)NCC(=O)O)ccc2c1C(=O)Nc1ccc(F)c(Cl)c1	-	-	HepAD38	PCR	>1000 µM
Cn1cnc(-c2ccc([C@@H]3CN(C(=O)Nc4ccc(F)c(Cl)c4)CCS3(=O)=O)s2)c1	-	-	HepG2.117	PCR	0.5–5 µM
CCOC(=O)c1cn(COCCO)c(=S)[nH]c1=O	Mutation M204I	-	B1	-	20 µM
O=C(c1ccc(Cl)c(F)c1)N1CCS(=O)(=O)[C@@H](c2cccs2)C1	-	-	HepG2.117	PCR	0.1–0.5 µM
Cc1c(C(=O)C(=O)NC2(C#CC(F)(F)F)CC(O)C2)c(C)n(C)c1C(=O)Nc1ccc(F)c(C#N)c1	-	-	HepG2.2.15	PCR	0.1–0.999 µM
N#CCCCOc1cc2c(cc1Cl)-c1c(cc(C(=O)O)c(=O)n1C1CC1)CS2(=O)=O	-	-	Primary human hepatocytes	antigen / visual reading / absorbance	0.1–0.5 µM
O=C(Nc1ccccc1)C1CN(C(=O)c2ccc(Br)c(Cl)c2)CCS1(=O)=O	-	-	HepG2.117	PCR	0.5–5 µM